A mixed list of measured activities; the numbers were collected in NIAID ChemDB.

Shared fields: tests in culture; agent: Candida albicans

ECn is the concentration giving n% inhibition of infection, replication or growth. A number after MIC or MFC names an inhibition level or a share of isolates. Blank or dashed fields: not listed here. Rows are shuffled and stem from different studies.

| SMILES | read by | strain | endpoint | value |
|---|---|---|---|---|
| CN(C)C1=NC(=O)/C(=C/c2ccc(Cl)cc2)S1 | broth dilution | ATCC 10231 | MIC100 | 62.5 µg/mL |
| O=C1CCC(c2ccccc2)C(=O)N1 |  | DSM 1386 | MIC | >100 µM |
| COc1cc2cc3c(c(-c4ccc5c(c4)OCO5)c2cc1OC)C(=O)OC3 |  |  | MIC | ≥4 µg/mL |
| Cn1[se]c2ccccc2c1=O | agar |  | MIC | 3 µg/mL |
| O=C1C=C(Sc2ccc(Cl)cc2)C(=O)c2c(O)cccc21 |  |  | MIC | 4 µg/mL |
| CC[CH2][Sn]([CH2]CC)([CH2]CC)[S]C[C@@H]1CCCN2CCCC[C@H]12 |  | ATCC 10231 | MIC | 1.95 µg/mL |
| CCCCCCCCCCCCC#CCCCCC(=O)O | broth dilution | SC5314 | EC50 | 4 µg/mL |
| OCCSCc1ccccc1 |  |  | MIC | >512 µg/mL |
| Clc1ccc(COC(Cn2ccnc2)c2ccc(Cl)cc2Cl)cc1 |  |  | MIC95 | 12.5 µg/mL |
| COc1c(O)cc2oc(-c3ccccc3)c(OC)c(=O)c2c1O |  |  | MIC | 500 µg/mL |
| CCC(=O)CCCNC(=S)Nc1ccc(OC)cc1 |  | ATCC2094 | MIC | >128 µg/mL |
| Oc1ccccc1N=Cc1ccc2cccc(O)c2n1 |  |  | MIC80 | 31.25 µg/mL |
| O=c1c2ccccc2[se]n1CO | agar |  | MIC | 228 µg/mL |
| [CH3][Sn]([CH3])([CH3])[S]C[C@@H]1CCCN2CCCC[C@H]12 |  | ATCC 10231 | MIC | >250 µg/mL |
| CC(=O)O[C@H]1C[C@@]23COC(=O)/C=C(/C)CC4OC(/C=C/C=C\C(=O)O[C@@H]5C[C@@H](O[C@@H]2C=C1C)[C@@]1(CO1)[C@]53C)[C@@H](C)O4 |  |  | MIC | 125 µg/mL |
| O=C1C(Sc2ccccc2)=CC(=O)c2c(O)cccc21 |  |  | MIC | 4 µg/mL |
| COc1ccc2nc(Oc3ccc(Cl)cc3)c(C3C(C#N)=C(N)Oc4c3c(=O)oc3ccccc43)cc2c1 |  | MTCC 227 | MIC | 1000 µg/mL |
| c1ccc(CSSCc2ccccc2)cc1 |  |  | MIC | 256 µg/mL |
| Cc1ccc(NC(=O)CN(C)CC(O)Cn2c(=O)c3ccccc3n(C)c2=O)cc1 | agar diffusion | ATCC 76615 | MIC | 16 µg/mL |
| COc1cc(/C=C2\SC(N(C)C)=NC2=O)cc(OC)c1OC | broth dilution | ATCC 10231 | MIC100 | >250 µg/mL |
| O=C1C(Sc2ccc(Cl)cc2)=CC(=O)c2c(O)cccc21 |  |  | MIC | 2 µg/mL |
| COc1ccc(NC(=S)NCCC(=O)OC(C)C)cc1 |  | ATCC2094 | MIC | >128 µg/mL |
| Cc1ccc(Oc2nc3ccc(C)cc3cc2C2C(C#N)=C(N)Oc3c2c(=O)oc2ccc(C)cc32)cc1 |  | MTCC 227 | MIC | 500 µg/mL |
| O=S=Cc1ccccc1 |  |  | MIC | 128 µg/mL |
| C=C(Cl)/C=C/[C@H](O)CC(=C)C[C@H]1OC2[C@@H](O)[C@]3(O)C[C@@H](O)[C@H](C)[C@H](CCC/C=C\[C@@H]4C[C@@H](O)C[C@]5(C[C@H](OC)CC(CC(=O)[C@@H](C)[C@H](OC(C)=O)[C@@H](C)C(=C)C[C@@H]6C[C@@](C)(O)C[C@]7(C[C@H](OC(C)=O)CC(CC(=O)O[C@@H]([C@@H]1O)[C@H]2C)O7)O6)O5)O4)O3 |  | ATCC64124 | MIC | 6.25 µg/mL |
| CN(C)C1=NC(=O)/C(=C/c2ccccc2)S1 | broth dilution | ATCC 10231 | MIC100 | 250 µg/mL |
| O=C1CCC(c2ccccc2)C(=O)N1CCCN1CCN(c2ncccn2)CC1 |  | DSM 1386 | MIC | >100 µM |
| O=C1C(Sc2ccccc2)=C(Sc2ccccc2)C(=O)c2c(O)cccc21 |  |  | MIC | 64 µg/mL |
| COc1ccc2nc(Oc3ccccc3)c(C3C(C#N)=C(N)Oc4c3c(=O)oc3ccccc43)cc2c1 |  | MTCC 227 | MIC | 500 µg/mL |
| O=S(Cc1ccccc1)SCc1ccccc1 |  |  | MIC | 16 µg/mL |
| Cc1ccc2c([N+](=O)[O-])cc([N+](=O)[O-])c(O)c2n1 |  |  | MIC80 | 250 µg/mL |
| CN(C/C=C/c1ccccc1)Cc1cccc2ccccc12 |  | 57 strains | MIC | >100 µg/mL |
| C[C@H](CCC(=O)NCCNCCNC(=O)CC[C@@H](C)[C@H]1CCC2C3CCC4C[C@H](O)CC[C@]4(C)C3C[C@H](C)[C@@]21O)[C@H]1CCC2C3CCC4C[C@H](O)CC[C@]4(C)C3C[C@H](C)[C@@]21O |  | Isolate 5 | MIC | 0.018 µM |
| CC(=O)N1CCN(c2ccc(OC[C@H]3CO[C@](Cn4ccnc4)(c4ccc(Cl)cc4Cl)O3)cc2)CC1 |  | Isogenic isolate 16 CDR | MIC | 0.13 µg/mL |
| CCOC(=O)n1[se]c2ccccc2c1=O | agar |  | MIC | 129 µg/mL |
| CC(C)c1cc2c(cc1O)[C@@]1(C)CCCC(C)(C)C1C[C@@H]2C |  |  | MIC | >250 µg/mL |
| C[C@@H]1[C@H](O)[C@@H](C)/C=C/C=C/C=C/C=C/C=C/C=C/C=C/[C@H](O[C@@H]2O[C@H](C)[C@@H](O)[C@H](N)[C@@H]2O)C[C@@H]2O[C@](O)(C[C@@H](O)C[C@@H](O)[C@H](O)CC[C@@H](O)C[C@@H](O)CC(=O)O[C@H]1C)C[C@H](O)[C@H]2C(=O)O | broth dilution | ATCC 40227 | MIC100 | >1024 µg/mL |
| COc1ccc2nc(Oc3ccc(Cl)cc3)c(C3C(C#N)=C(N)Oc4c3c(=O)oc3ccc(C)cc43)cc2c1 |  | MTCC 227 | MIC | 500 µg/mL |
| COc1c(-c2ccccc2)oc2cc3c(c(OC)c2c1=O)OCO3 |  |  | MIC | 500 µg/mL |
| O=C1C(Nc2ccc(F)cc2)=C(Cl)C(=O)c2c(O)cccc21 |  |  | MIC | 16 µg/mL |
| COC(=O)CCNC(=S)Nc1ccc([N+](=O)[O-])cc1 |  | ATCC2094 | MIC | >128 µg/mL |
| Clc1ccc(COC(Cn2ccnc2)c2ccc(Cl)cc2Cl)c(Cl)c1 |  |  | MIC | 10 µg/mL |
| COc1cccc2c1C(=O)C(Sc1cccc(F)c1)=CC2=O |  |  | MIC | 16 µg/mL |
| CN(C)CCn1[se]c2ccccc2c1=O | agar |  | MIC | >512 µg/mL |
| Clc1ccc(COC(Cn2ccnc2)c2ccc(Cl)cc2Cl)c(Cl)c1 |  | ATCC 10231 | MIC | 15.6 µg/mL |
| C[C@@H](c1ncncc1F)[C@](O)(Cn1cncn1)c1ccc(F)cc1F | broth dilution | Clinical isolates | MIC | 0.03 µg/mL |
| Oc1cc(Cl)ccc1Oc1ccc(Cl)cc1Cl | broth dilution |  | MIC80 | 64 µg/mL |
| COc1ccccc1N1CCN(CCCN2C(=O)CCC(c3ccccc3)C2=O)CC1 |  | DSM 1386 | MIC | >100 µM |
| c1ccc(CSSSCc2ccccc2)cc1 |  |  | MIC | 16 µg/mL |
| C[C@H]1[C@H](O)[C@@H](C)/C=C/C=C/C=C/C=C/C=C/C=C/C=C/[C@H](O[C@@H]2O[C@H](C)[C@@H](O)[C@H](N)[C@@H]2O)C[C@@H]2O[C@](O)(C[C@@H](O)C[C@@H](O)CC[C@H](O)[C@@H](O)C[C@@H](O)CC(=O)O[C@H]1C)C[C@H](O)[C@H]2C(=O)O | turbidity |  | MIC50 | <0.2 µg/mL |
| N=C(N)c1ccc2c(c1)[nH]c1cc(C(=N)N)ccc12 |  | A39 | MFC | 1.56 µg/mL |
| CCOP(=O)(O)CC(C)(C)N(Cl)Cl |  | ATCC 10231 | MFC | 32 µg/mL |
| C=CC[C@@H]1/C=C(/C)C[C@H](C)C[C@H](OC)[C@H]2O[C@@](O)(C(=O)C(=O)N3CCCC[C@H]3C(=O)O[C@H](/C(C)=C/[C@@H]3CC[C@@H](O)[C@H](OC)C3)[C@H](C)[C@@H](O)CC1=O)[C@H](C)C[C@@H]2OC |  | YAG237 (genotype CNB1-1/CNB1) | MIC | >3.12 µg/mL |
| CCN1C[C@]2(CO)CC[C@H](OC)[C@]34C5CC6[C@H](OC)C5[C@](O)(C[C@@H]6OC)[C@@](O)(C13)[C@@H](OC)[C@H]24 |  |  | MIC | 4 µg/mL |
| O=c1c2ccccc2[se]n1C(CO)CO | agar |  | MIC | 272 µg/mL |
| CCCCCCCCCCCCCC(CCC(=O)O)C(CCCCCCCCCCCCC)CCC(=O)O |  |  | MIC | >500 µg/mL |
| CCC(C)n1ncn(-c2ccc(N3CCN(c4ccc(OC[C@H]5CO[C@](Cn6cncn6)(c6ccc(Cl)cc6Cl)O5)cc4)CC3)cc2)c1=O |  | ATCC 10231 | MIC90 | >16 µg/mL |
| Oc1ccc(N=Nc2c(Cl)cccc2Cl)c2cccnc12 |  |  | MIC80 | 125 µg/mL |
| c1ccc(Nc2ccc3ccccc3c2)cc1 |  |  | MIC | >500 µg/mL |
| COc1ccc2nc(Oc3ccc(C)cc3)c(C3C(C#N)=C(N)Oc4c3c(=O)oc3ccccc43)cc2c1 |  | MTCC 227 | MIC | 1000 µg/mL |
| COc1cccc2c1C(=O)C=C(Sc1cccc(F)c1)C2=O |  |  | MIC | 32 µg/mL |
| CC[C@@H]([C@H](C)O)n1ncn(-c2ccc(N3CCN(c4ccc(OC[C@@H]5CO[C@@](Cn6cncn6)(c6ccc(F)cc6F)C5)cc4)CC3)cc2)c1=O | broth dilution | Clinical isolates | MIC | 0.03 µg/mL |
| CC(C)(COC(=O)CCS(=O)(=O)O)N(Cl)Cl |  | ATCC 10231 | MFC | 4 µg/mL |
| C[C@H]1[C@H](O)[C@@H](C)/C=C/C=C/C=C/C=C/C=C/C=C/C=C/[C@H](O[C@@H]2O[C@H](C)[C@@H](O)[C@H](N)[C@@H]2O)C[C@@H]2O[C@](O)(C[C@@H](O)C[C@@H](O)CC[C@H](O)[C@@H](O)C[C@@H](O)CC(=O)O[C@H]1C)C[C@H](O)[C@H]2C(=O)O | broth dilution | Clinical isolates | MIC | 0.5 µg/mL |
| C[CH2][Ge]([CH2]C)([CH2]C)[S]C[C@@H]1CCCN2CCCC[C@H]12 |  | ATCC 10231 | MIC | 250 µg/mL |
| C[C@H]1[C@H](O)[C@@H](C)/C=C/C=C/C=C/C=C/C=C/C=C/C=C/[C@H](O[C@@H]2O[C@H](C)[C@@H](O)[C@H](N)[C@@H]2O)C[C@@H]2O[C@](O)(C[C@@H](O)C[C@@H](O)CC[C@H](O)[C@@H](O)C[C@@H](O)CC(=O)O[C@H]1C)C[C@H](O)[C@H]2C(=O)O |  | ATCC 10231 | MIC50 | 0.12 µg/mL |
| Cc1nn([C@H](C)[C@](O)(Cn2cncn2)c2ccc(F)cc2F)c2ccc([N+](=O)[O-])cc12 |  | ATCC 32033 | MIC90 | ≤0.031 µg/mL |
| CCCNC(=O)n1[se]c2ccccc2c1=O | agar |  | MIC | 9 µg/mL |

The first 9 rows once more:

CN(C)C1=NC(=O)/C(=C/c2ccc(Cl)cc2)S1 ; read by: broth dilution ; strain: ATCC 10231 ; endpoint: MIC100 ; value: 62.5 µg/mL
O=C1CCC(c2ccccc2)C(=O)N1 ; strain: DSM 1386 ; endpoint: MIC ; value: >100 µM
COc1cc2cc3c(c(-c4ccc5c(c4)OCO5)c2cc1OC)C(=O)OC3 ; endpoint: MIC ; value: ≥4 µg/mL
Cn1[se]c2ccccc2c1=O ; read by: agar ; endpoint: MIC ; value: 3 µg/mL
O=C1C=C(Sc2ccc(Cl)cc2)C(=O)c2c(O)cccc21 ; endpoint: MIC ; value: 4 µg/mL
CC[CH2][Sn]([CH2]CC)([CH2]CC)[S]C[C@@H]1CCCN2CCCC[C@H]12 ; strain: ATCC 10231 ; endpoint: MIC ; value: 1.95 µg/mL
CCCCCCCCCCCCC#CCCCCC(=O)O ; read by: broth dilution ; strain: SC5314 ; endpoint: EC50 ; value: 4 µg/mL
OCCSCc1ccccc1 ; endpoint: MIC ; value: >512 µg/mL
Clc1ccc(COC(Cn2ccnc2)c2ccc(Cl)cc2Cl)cc1 ; endpoint: MIC95 ; value: 12.5 µg/mL